This passage reports cytotoxicity results from patent US5622936A (priority 1988, dated 1997).

Structures are written as SMILES.

In this series the test system is retrothelial sarcoma cells. Kind of series: Cytotoxic activity in vitro, retrothelial sarcoma.

On to `NP(=O)(O)N(CCCl)CCCl`, for which the cytotoxicity entry is on record as “cytotoxicity”.
